A mixed list of measured activities; the numbers were collected in NIAID ChemDB.

Common to all: tests in culture; agent: Pneumocystis carinii; read-out: EC50

An empty or dashed field is not shown.

{"compound": "Nc1ccc(S(=O)(=O)Nc2cc(F)cc(F)c2)cc1", "setting": "5 d", "value": ">100 µM"}
{"compound": "O=c1[nH]cnc2c([C@@H]3O[C@H](CO)[C@@H](O)[C@H]3O)c[nH]c12", "value": ">1 µg/mL"}
{"compound": "CN(Cc1cnc2nc(N)nc(N)c2n1)c1ccc(C(=O)N[C@@H](CCC(=O)O)C(=O)O)cc1", "value": "4.3 µM"}
{"compound": "O=C(O)CNCP(=O)(O)O", "setting": "7 d", "value": ">10 µM"}
{"compound": "Cc1cc(NS(=O)(=O)c2ccc(N)cc2)no1", "setting": "5 d", "value": ">100 µM"}
{"compound": "N#Cc1ccc(N2CCN(c3ccc(C#N)cc3)CC2)cc1", "cells": "A549", "value": "97.2 µg/mL"}
{"compound": "Cc1cn([C@H]2C=C[C@@H](CO)O2)c(=O)[nH]c1=O", "value": ">100 µg/mL"}
{"compound": "CN(Cc1cnc2nc(N)nc(N)c2n1)c1c(F)cc(C(=O)N[C@H](CCC(=O)O)C(=O)O)cc1F", "value": "1.5 µM"}
{"compound": "c1cc(N2CCCN(c3ccc(/C(=N\\C4=NCCCN4)NC4=NCCCN4)cc3)CC2)ccc1/C(=N/C1=NCCCN1)NC1=NCCCN1", "cells": "A549", "value": "2.18 µg/mL"}
{"compound": "CN(Cc1cnc2nc(N)nc(N)c2n1)c1ccc(C(=O)N[C@@H](CCC(=O)N[C@@H](CCC(=O)N[C@@H](CCC(=O)N[C@@H](CCC(=O)O)C(=O)O)C(=O)O)C(=O)O)C(=O)O)cc1", "value": "1.4 µM"}
{"compound": "CCCN=C(N)c1ccc(N2CCN(c3ccc(C(N)=NCCC)cc3)CC2)cc1", "cells": "A549", "value": "1.6 µg/mL"}
{"compound": "CN(C/C=C/C#CC(C)(C)C)Cc1cccc2ccccc12", "cells": "A549", "value": "0.3 µg/mL"}
{"compound": "Cc1cn([C@H]2C[C@H](N=[N+]=[N-])[C@@H](CO)O2)c(=O)[nH]c1=O", "value": ">100 µg/mL"}
{"compound": "COc1cc(NC(C)CCCN)c2ncccc2c1", "setting": "10 d", "value": "<10 µg/mL"}
{"compound": "c1ccc(N2CCN(c3ccccc3)C2c2ccc(N3CCN(c4ccc(C5N(c6ccccc6)CCN5c5ccccc5)cc4)CC3)cc2)cc1", "cells": "A549", "value": ">100 µg/mL"}
{"compound": "CCc1nc(N)nc(N)c1-c1ccc(Cl)cc1", "value": "26.1 µM"}
{"compound": "CN=C(N)c1ccc(N2CCN(c3ccc(C(N)=NC)cc3)CC2)cc1", "cells": "A549", "value": "2.5 µg/mL"}
{"compound": "Nc1nc(N)c2nc(CSc3ccccc3)cnc2n1", "value": "75 µM"}
{"compound": "CC(C)(C)NC(=O)[C@@H]1CN(Cc2cccnc2)CCN1C[C@@H](O)C[C@@H](Cc1ccccc1)C(=O)N[C@H]1c2ccccc2C[C@H]1O", "value": "35.4 µg/mL"}
{"compound": "N=C(N)c1ccc(NC(=O)CCCCC(=O)Nc2ccc(C(=N)N)cc2)cc1", "cells": "A549", "value": "0.0009 µg/mL"}
{"compound": "CC1(C)N=C(N)N=C(N)N1c1cccc(OCCCOc2ccc(N)cc2)c1", "value": "14.1 µM"}

The last 2 rows once more:

| compound | cells | setting | value |
|---|---|---|---|
| N=C(N)c1ccc(NC(=O)CCCCC(=O)Nc2ccc(C(=N)N)cc2)cc1 | A549 |  | 0.0009 µg/mL |
| CC1(C)N=C(N)N=C(N)N1c1cccc(OCCCOc2ccc(N)cc2)c1 |  |  | 14.1 µM |

ECn: concentration that inhibits the pathogen or its effect by n%. Neighbouring rows are from separate reports.